Measured values taken from PMC10195822.

By UniProt entry, the sequences of proteins in these tests, tags left out. Where a name states a change or a piece, a line headed by the entry shows the natural chain unless it says otherwise.
UniProt Q61069: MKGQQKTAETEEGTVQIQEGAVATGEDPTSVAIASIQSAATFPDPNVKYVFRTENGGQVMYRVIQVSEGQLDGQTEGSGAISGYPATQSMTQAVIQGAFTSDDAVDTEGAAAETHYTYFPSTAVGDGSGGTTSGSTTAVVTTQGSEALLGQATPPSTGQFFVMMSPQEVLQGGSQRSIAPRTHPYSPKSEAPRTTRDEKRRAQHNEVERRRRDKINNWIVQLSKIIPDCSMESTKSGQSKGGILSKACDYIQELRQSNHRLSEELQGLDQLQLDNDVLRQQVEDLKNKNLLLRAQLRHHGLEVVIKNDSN
UniProt Q64705: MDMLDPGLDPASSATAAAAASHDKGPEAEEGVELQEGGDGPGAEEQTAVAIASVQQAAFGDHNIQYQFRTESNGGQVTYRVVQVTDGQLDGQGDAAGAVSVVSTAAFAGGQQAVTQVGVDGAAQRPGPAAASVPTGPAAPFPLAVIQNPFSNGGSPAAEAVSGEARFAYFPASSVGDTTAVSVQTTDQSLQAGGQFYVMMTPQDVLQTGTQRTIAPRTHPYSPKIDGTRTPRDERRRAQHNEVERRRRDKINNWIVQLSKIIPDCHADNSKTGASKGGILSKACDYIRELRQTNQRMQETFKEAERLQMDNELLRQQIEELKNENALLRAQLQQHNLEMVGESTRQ
UniProt P42227, whole entry: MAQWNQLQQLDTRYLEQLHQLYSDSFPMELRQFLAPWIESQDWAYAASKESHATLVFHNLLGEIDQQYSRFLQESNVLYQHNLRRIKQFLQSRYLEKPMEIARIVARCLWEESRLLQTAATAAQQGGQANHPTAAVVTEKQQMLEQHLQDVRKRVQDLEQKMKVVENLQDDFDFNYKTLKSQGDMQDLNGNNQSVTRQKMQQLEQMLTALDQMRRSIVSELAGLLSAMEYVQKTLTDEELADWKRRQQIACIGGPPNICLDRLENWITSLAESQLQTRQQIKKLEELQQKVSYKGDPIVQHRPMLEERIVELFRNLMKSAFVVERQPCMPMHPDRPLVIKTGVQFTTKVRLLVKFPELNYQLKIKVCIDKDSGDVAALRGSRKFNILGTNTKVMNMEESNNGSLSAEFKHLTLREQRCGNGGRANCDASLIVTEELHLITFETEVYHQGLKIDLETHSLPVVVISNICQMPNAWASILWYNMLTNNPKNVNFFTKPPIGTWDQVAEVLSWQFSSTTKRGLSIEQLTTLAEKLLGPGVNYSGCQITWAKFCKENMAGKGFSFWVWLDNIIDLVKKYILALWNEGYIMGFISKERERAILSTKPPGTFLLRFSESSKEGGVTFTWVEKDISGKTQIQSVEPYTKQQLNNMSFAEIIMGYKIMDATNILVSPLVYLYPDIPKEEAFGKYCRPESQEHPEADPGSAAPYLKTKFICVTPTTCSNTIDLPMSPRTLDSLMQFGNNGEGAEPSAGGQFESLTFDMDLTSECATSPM

Legend:
Experiment in all cases: DNA pull-down + immunoblot
USF1 = USF1 (UniProt Q61069); conditions: LDPm-infected BMDC nuclear extract, 24 h; protein in an extract; label: biotin (pull-down), 32P (EMSA)
USF2 = USF2 (UniProt Q64705); conditions: LDPm-infected BMDC nuclear extract, 24 h; protein in an extract; label: biotin (pull-down), 32P (EMSA)
STAT3 = STAT3 (UniProt P42227); conditions: LDPm-infected BMDC nuclear extract, 0.5 h; protein in an extract; label: biotin (pull-down), 32P (EMSA)
Ets1 = target: T1, Ets1 (UniProt P27577); conditions: LDPm-infected BMDC nuclear extract, 24 h; protein in an extract; label: biotin (pull-down), 32P (EMSA)
T1 sequence (looked up, limits assumed): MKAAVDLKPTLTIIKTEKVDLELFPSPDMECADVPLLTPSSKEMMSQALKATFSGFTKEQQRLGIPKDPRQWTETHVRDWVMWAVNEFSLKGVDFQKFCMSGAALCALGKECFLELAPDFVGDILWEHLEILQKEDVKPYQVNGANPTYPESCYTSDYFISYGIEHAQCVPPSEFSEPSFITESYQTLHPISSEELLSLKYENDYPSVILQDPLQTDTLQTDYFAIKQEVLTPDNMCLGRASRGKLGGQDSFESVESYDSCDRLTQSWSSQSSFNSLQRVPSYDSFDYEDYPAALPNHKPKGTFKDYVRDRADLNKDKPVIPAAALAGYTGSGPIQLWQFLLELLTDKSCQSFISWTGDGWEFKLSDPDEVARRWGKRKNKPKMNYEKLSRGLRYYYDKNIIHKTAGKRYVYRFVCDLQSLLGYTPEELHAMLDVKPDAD

Ets2 = target: T2, Ets2 (UniProt P15037); conditions: LDPm-infected BMDC nuclear extract, 24 h; protein in an extract; label: biotin (pull-down), 32P (EMSA)
T2 sequence (looked up, limits assumed): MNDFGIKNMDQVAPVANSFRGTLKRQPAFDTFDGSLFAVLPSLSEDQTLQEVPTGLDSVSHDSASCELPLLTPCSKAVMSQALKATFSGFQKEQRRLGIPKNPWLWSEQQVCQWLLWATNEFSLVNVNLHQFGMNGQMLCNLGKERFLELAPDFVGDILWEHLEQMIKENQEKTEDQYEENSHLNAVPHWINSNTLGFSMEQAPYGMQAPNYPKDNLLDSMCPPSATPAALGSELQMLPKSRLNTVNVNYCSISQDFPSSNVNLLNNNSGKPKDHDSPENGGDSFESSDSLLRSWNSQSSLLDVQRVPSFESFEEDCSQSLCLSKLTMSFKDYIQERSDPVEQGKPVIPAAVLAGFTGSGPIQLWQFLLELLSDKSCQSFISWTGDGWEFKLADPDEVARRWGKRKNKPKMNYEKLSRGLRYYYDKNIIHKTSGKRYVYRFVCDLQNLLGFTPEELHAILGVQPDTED

## AGTACTAACGTGGTAATC (double strand) [USF-Pr]
USF1
  binding result: binds
USF2
  binding result: binds

## CAAAAACCTTTGCCAAATCGGCCCCACTGAG (double strand) [Mut-Pr]
STAT3
  binding result: no binding

## CAAAAACCTTTGCCAGGAAGGCCCCACTGAG (double strand) [Pr]
STAT3
  binding result: binds

## TCACTGGAGGTCAGACATCCTGGGG (double strand) [Ets-Pr]
Ets1
  binding result: binds
Ets2
  binding result: binds

For at least one entry, the source does not settle the construct or the ends of the probe. At least one result comes from cells or an extract, where the contact may be indirect. For part of these data: No signal at the amounts used counts as a negative. For part of these data: At least one verdict rests on a figure or table, not on a statement of the authors. For part of these data: Tags and fusion partners may be left off the protein sequences shown.
